Assay results as given in patent US20140308291A1 (INTEGRATED BIOTHERAPEUTICS, published 2014).
Where a chain is given by its changes, count along the chain named. Names may count otherwise.

Columns and labels:
[1] = target: T1, wild-type LukF-PV (mature, N-terminal 6xHis tag) (Staphylococcus aureus); experiment: MPD-based oligomerization assay (40% MPD, 24 hours), SDS-PAGE without boiling
T1 chain: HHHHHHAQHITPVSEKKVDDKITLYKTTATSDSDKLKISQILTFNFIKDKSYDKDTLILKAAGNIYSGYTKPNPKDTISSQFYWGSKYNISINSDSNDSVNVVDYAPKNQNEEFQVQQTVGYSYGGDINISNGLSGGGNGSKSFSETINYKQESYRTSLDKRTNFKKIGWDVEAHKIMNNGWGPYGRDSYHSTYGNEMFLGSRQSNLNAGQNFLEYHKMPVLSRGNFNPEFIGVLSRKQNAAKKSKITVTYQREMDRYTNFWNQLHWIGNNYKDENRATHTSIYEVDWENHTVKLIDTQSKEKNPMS

[2] = target: T2, LukF-PV mutant K102A (Mut1) (Staphylococcus aureus); experiment: as above
T2 chain: T1 chain with K108A

B1: LukS-PV triple mutant T28F/K97A/S209A (Mut9) (other)
chain: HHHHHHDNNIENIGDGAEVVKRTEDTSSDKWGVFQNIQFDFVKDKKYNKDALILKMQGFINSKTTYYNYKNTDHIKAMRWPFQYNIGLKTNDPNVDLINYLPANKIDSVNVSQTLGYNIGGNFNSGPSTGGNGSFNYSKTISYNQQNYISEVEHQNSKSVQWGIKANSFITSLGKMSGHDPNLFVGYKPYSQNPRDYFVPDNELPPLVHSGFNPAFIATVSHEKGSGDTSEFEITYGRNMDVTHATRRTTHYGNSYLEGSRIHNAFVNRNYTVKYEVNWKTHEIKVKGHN
B1: no binding [1]; no binding [2].
